Measurements reported in PubChem BioAssay AID624099 (ICCB-Longwood, 2012)

Screen: 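Knock-downs relieving repression by E2 of an HPV18 LCR luciferase reporter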 (primary screen)
System: human C33A cervical carcinoma cells (HPV-negative) stably expressing BPV1 E2 and an HPV18 LCR luciferase reporter
Reagents: siRNA pool against human genes, 40 nM
Timing: 72 h
Detection: 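Per-well luciferase luminescence, z-scored on each plate against the plate mean and SD with control wells left out, then averaged across three replicate plates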
Direction: mean z-score and z-score: higher = stronger reporter signal, weaker E2 silencing
Call rule: 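Hit if mean z-score reaches 2 and two or more of three replicate z-scores also reach 2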
This is one part, drawn at random, of about 21,000 deposited reagents. In the full data, 497 (2.4%) are marked active. 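Higher z means weaker E2 silencing; only reporter increases were scored, and knock-downs that hurt cell survival may mask genuine repressor factors.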 A number with no mark means an inactive call.

LOC387823 (retired record) gave mean z-score 0.59; z-score, replicate A = 0.59; z-score, replicate B = 0.75; z-score, replicate C = 0.44.
Depletion of COX15 (cytochrome c oxidase assembly factor COX15) came out at: mean z-score -0.67; z-score, replicate A = -0.69; z-score, replicate B = -0.69; z-score, replicate C = -0.62.
With knock-down of FAM161B (FAM161 centrosomal protein B) the results were mean z-score -0.43; z-score, replicate A = -0.4; z-score, replicate B = -0.84; z-score, replicate C = -0.06.
BASP1 (brain abundant membrane attached signal protein 1) showed mean z-score 1.37; z-score, replicate A = 1.47; z-score, replicate B = 1.29; z-score, replicate C = 1.36.
KLC1 (kinesin light chain 1) showed mean z-score 0.15; z-score, replicate A = 0.18; z-score, replicate B = -0.06; z-score, replicate C = 0.32.
Knock-down of DUSP19 (dual specificity phosphatase 19) came out at: mean z-score -1.09; z-score, replicate A = -1.07; z-score, replicate B = -1.26; z-score, replicate C = -0.95.
Knock-down of TSLP (thymic stromal lymphopoietin) gave: mean z-score 1.1; z-score, replicate A = 0.5; z-score, replicate B = 1.23; z-score, replicate C = 1.56.
Knock-down of TPRKB (TP53RK binding protein) gave: mean z-score 0.53; z-score, replicate A = 0.87; z-score, replicate B = 0.27; z-score, replicate C = 0.44.
Depletion of PRY (PTPN13 like Y-linked) came out at: mean z-score -1.43; z-score, replicate A = -1.2; z-score, replicate B = -1.39; z-score, replicate C = -1.7.
Silencing of GREB1 (growth regulating estrogen receptor binding 1) came out at: mean z-score -0.84; z-score, replicate A = -0.71; z-score, replicate B = -1.15; z-score, replicate C = -0.67.
With knock-down of HOGA1 (4-hydroxy-2-oxoglutarate aldolase 1), the screen gave mean z-score -1.46; z-score, replicate A = -1.2; z-score, replicate B = -1.48; z-score, replicate C = -1.69.
GLT8D2 (glycosyltransferase 8 domain containing 2) scored mean z-score -0.05; z-score, replicate A = -0.08; z-score, replicate B = -0.03; z-score, replicate C = -0.04.

Look-ups from the list:
Under “z-score, replicate A”, HOGA1 (4-hydroxy-2-oxoglutarate aldolase 1) shows -1.2
For “z-score, replicate C”, GREB1 (growth regulating estrogen receptor binding 1) has -0.67
